Compound potency records, mixed from different reports. Data source: NIAID ChemDB in PubChem.

Common to all: enzyme or target tests; species: HIV-1; protein: Reverse transcriptase; read by: nucleotide incorporation / radiometric; endpoint: IC50

Two numbers with a dash give a range or band.

| compound | changes | strain or isolate | value |
|---|---|---|---|
| CCN1c2ncc(CCOc3ccc(/C=C(\C)C(=O)O)c4ccccc34)cc2C(=O)Nc2c(C)cc(F)nc21 | RT-V106A | - | 0.1–1 µM |
| CCN1c2ncc(COc3cc[n+]([O-])c(C)c3)cc2C(=O)N(C)c2ccc(Cl)nc21 | - | WT | <1 µM |
| CCN1c2ncc(CCOc3ccc(C(=O)O)c4c3CCCC4)cc2C(=O)N(C)c2cccnc21 | RT-Y188L | - | >1 µM |
| CCC1(c2ccc(CCc3ccccc3)cc2)Oc2ccccc2-n2cccc2C1=O | RT-Y181I | - | >10 µM |
| CCN1c2ncc(COc3ccncc3)cc2C(=O)N(C)c2ccc(Cl)nc21 | RT-Y181C | - | <1 µM |
| CCOc1ccc(CSc2nc(Cc3c(Cl)cccc3Cl)c(C)c(=O)[nH]2)cc1 | RT-K103N | - | >400 µM |
| COc1ccc(NC(=O)CSc2nnnn2-c2c(C)cc(C)cc2C)c([N+](=O)[O-])c1 | - | - | <2 µM |
| CCN1c2ncc(CCOc3ccc(C(=O)O)c4ccccc34)cc2C(=O)N(C)c2ccc(Cl)nc21 | RT-K103N Y181C | - | <0.1 µM |
| Cc1cccc(C)c1-n1nnnc1SCC(=O)Nc1ccccc1[N+](=O)[O-] | - | - | <2 µM |
| CCN1c2ncc(CCc3ccccc3)cc2C(=O)N(C)c2ccc(-c3ccc[nH]3)nc21 | RT-Y181C | - | <1 µM |
| CCC1(c2ccc(Cn3ccsc3=N)cc2)Oc2ccccc2-n2cccc2C1=O | RT-Y181I | - | >10 µM |
| CCN1c2ncc(CCOc3ccc(CCC(=O)O)c4ccccc34)cc2C(=O)Nc2c(C)ccnc21 | RT-Y188L | - | >1 µM |
| CCN1c2ncc(Cc3cccc(O)c3)cc2C(=O)N(C)c2ccc(Cl)nc21 | - | WT | <1 µM |
| CCN1c2ncc(CCOc3ccc(CC(N)=O)c4ccccc34)cc2C(=O)N(C)c2cccnc21 | RT-Y188L | - | >1 µM |
| CCCCOc1ccc(CSc2nc(Cc3c(Cl)cccc3Cl)c(C)c(=O)[nH]2)cc1 | RT-K103N | - | >400 µM |
| CCN1c2ncc(CCOc3ccc(CCC(=O)NN)c4ccccc34)cc2C(=O)N(C)c2cccnc21 | - | WT | <0.1 µM |
| C=C(C)CCOCc1ccc(C2(CC)Oc3ccccc3-n3cccc3C2=O)cc1 | RT-Y188L | - | >10 µM |
| COc1ccc(CSc2nc(Cc3c(Cl)cccc3Cl)c(C)c(=O)[nH]2)cc1OC | RT-181I | - | >400 µM |
| CCN1c2ncc(CCOc3ccc(CC(C)C(=O)O)c4ccccc34)cc2C(=O)Nc2c(C)cc(Cl)nc21 | RT-V106A | - | 0.1–1 µM |
| Cc1cc(C)c(-n2nnnc2SCC(=O)Nc2cc([N+](=O)[O-])ccc2Cl)c(C)c1 | - | - | <2 µM |
| Cc1c(Cc2c(Cl)cccc2Cl)nc(SCc2ccc(O)cc2)[nH]c1=O | RT-181I | - | >400 µM |
| CCN1c2ncc(CSc3ccncc3)cc2C(=O)N(C)c2ccc(Cl)nc21 | - | WT | <1 µM |
| Cc1cn([C@H]2C=C[C@@H](COP(=O)(O)OP(=O)(O)OP(=O)(O)O)O2)c(=O)[nH]c1=O | RT-E138K | - | 0.16 µM |
| CCC1(c2cccc(N)c2)Oc2ccccc2-n2cccc2C1=O | RT-K103N | - | 2 µM |
| CCN1c2ncc(CCOc3ccc4cc(C(=O)O)ccc4c3)cc2C(=O)N(C)c2cccnc21 | RT-V106A | - | 0.1–1 µM |
| CCN1c2ncc(COc3cccc(C(=O)O)c3)cc2C(=O)N(C)c2ccc(Cl)nc21 | - | WT | <1 µM |
| CCN1c2ncc(CCOc3ccc(CCC(=O)O)c4ccccc34)cc2C(=O)N(C)c2ccc(C)nc21 | - | WT | <0.1 µM |
| CCC1(c2ccc(CNc3cccc(F)c3)cc2)Oc2ccccc2-n2cccc2C1=O | - | WT | 0.4 µM |
| Cc1ccc(-n2nnnc2SCC(=O)Nc2ccc(C)c([N+](=O)[O-])c2)cc1 | - | - | <2 µM |
| CCN1c2ncc(CCl)cc2C(=O)N(C)c2ccc(Cl)nc21 | - | WT | <1 µM |
| Cc1c(Cc2c(Cl)cccc2Cl)nc(SCc2ccc(C(C)C)cc2)[nH]c1=O | RT-K103N | - | >400 µM |
| Cc1cc(C)c(-n2nnnc2SCC(=O)Nc2ccc([N+](=O)[O-])cc2C)c(C)c1 | - | - | <2 µM |
| CCC1(c2ccc(COc3ccccc3Cl)cc2)Oc2ccccc2-n2cccc2C1=O | RT-Y188L | - | >10 µM |

An empty or dashed field is not shown. Neighbouring rows are from separate reports. ICn: concentration for n% inhibition.